Test system: CHIKV
Test: Western blot of CHIKV structural protein production in BHK-21 cells
Conditions: 350 μM added at 0, 1, 2, 3 or 4 hours after infection

`Cc1ccc(C(=O)Nc2ccc(S(=O)(=O)O)c3cc(S(=O)(=O)O)cc(S(=O)(=O)O)c23)cc1NC(=O)c1cccc(NC(=O)Nc2cccc(C(=O)Nc3cc(C(=O)Nc4ccc(S(=O)(=O)O)c5cc(S(=O)(=O)O)cc(S(=O)(=O)O)c45)ccc3C)c2)c1` [suramin] was tested. Which “time-of-addition: stage in which the inhibition activity takes place” value did it give?
Its value is 0-2 hours post infection.

— US9381175B2, “Method for treating Chikungunya virus infection” (priority 2014, dated 2016)
